One sequence from patent publication US5641633 can be followed below.

The chains behind the UniProt entries cited, without tags or fusion partners. Residues count along the entry.
UniProt P00582, 324-928: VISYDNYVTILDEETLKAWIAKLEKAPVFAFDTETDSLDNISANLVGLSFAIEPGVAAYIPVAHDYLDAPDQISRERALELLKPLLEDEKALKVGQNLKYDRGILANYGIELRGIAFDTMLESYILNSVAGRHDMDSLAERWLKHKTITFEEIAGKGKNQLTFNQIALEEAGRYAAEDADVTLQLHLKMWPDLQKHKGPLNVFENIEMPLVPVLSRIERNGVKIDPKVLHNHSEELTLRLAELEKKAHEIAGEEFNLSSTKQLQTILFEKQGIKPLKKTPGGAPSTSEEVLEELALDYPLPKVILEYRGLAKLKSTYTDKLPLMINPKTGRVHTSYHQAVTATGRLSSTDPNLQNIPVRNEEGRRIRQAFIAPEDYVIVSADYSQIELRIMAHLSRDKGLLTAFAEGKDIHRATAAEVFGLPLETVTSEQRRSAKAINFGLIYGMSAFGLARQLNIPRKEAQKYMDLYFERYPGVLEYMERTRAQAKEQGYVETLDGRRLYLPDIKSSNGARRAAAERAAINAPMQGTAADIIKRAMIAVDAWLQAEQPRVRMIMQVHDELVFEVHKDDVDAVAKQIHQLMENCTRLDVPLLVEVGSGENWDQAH

The exact form of at least one protein or probe is not confirmed.

This series deals with Klenow fragment of DNA polymerase I, exonuclease deficient (Escherichia coli) (UniProt P00582). Nature of the series: FP. Conditions: 154 mP after vs 114 mP before Klenow exo- at 1000 genomes, 37 C; no-target control 60 vs 57 mP; Bca and BsoBI also present; EDTA; purified recombinant protein; protein details: United States Biochemical; label: 5' ….

On to “ATCCGTATGGTGGATAACGTCTTTCA (double strand)”, for which the binding result is given as “binds”.
